Assay results published in patent publication US12605369B2, “Amido-substituted heterocyclic compounds and methods of use thereof for the treatment of herpes viruses” (Merck Sharp & Dohme LLC, priority 2019, dated 2026).

The chains behind the UniProt entries cited, without tags or fusion partners.
UniProt P08546, whole entry: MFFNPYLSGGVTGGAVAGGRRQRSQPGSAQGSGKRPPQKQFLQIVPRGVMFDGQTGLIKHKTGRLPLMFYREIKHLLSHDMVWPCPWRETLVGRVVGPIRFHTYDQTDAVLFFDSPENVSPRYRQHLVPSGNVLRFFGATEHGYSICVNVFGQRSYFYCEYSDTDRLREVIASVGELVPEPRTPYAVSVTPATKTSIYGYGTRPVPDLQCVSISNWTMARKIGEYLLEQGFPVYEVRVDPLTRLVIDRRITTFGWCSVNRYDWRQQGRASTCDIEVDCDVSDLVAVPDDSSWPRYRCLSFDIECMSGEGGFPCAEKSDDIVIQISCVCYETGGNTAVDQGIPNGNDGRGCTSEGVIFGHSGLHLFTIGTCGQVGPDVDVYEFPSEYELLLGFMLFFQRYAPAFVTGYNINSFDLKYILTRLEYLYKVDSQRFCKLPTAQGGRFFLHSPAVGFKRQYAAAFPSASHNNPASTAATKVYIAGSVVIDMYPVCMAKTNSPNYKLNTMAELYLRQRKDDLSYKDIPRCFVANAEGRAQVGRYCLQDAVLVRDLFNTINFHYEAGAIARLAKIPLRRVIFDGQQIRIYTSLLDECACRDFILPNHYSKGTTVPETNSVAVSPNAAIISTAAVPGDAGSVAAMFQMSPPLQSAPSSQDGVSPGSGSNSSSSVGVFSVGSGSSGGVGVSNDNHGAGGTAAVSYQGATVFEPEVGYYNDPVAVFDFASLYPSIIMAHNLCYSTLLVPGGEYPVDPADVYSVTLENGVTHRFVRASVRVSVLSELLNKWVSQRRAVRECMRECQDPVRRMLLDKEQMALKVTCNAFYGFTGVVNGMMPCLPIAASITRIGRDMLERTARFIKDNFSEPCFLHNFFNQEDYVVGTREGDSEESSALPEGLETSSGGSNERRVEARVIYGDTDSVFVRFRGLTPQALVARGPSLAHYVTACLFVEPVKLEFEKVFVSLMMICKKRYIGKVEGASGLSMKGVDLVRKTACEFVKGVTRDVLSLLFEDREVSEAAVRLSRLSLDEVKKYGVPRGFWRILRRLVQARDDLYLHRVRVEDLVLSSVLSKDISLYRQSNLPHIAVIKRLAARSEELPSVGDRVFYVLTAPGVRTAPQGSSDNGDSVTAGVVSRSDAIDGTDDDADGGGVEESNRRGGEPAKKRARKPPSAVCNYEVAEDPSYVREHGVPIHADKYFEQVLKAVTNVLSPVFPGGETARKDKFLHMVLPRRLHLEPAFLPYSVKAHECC
UniProt P09252, whole entry: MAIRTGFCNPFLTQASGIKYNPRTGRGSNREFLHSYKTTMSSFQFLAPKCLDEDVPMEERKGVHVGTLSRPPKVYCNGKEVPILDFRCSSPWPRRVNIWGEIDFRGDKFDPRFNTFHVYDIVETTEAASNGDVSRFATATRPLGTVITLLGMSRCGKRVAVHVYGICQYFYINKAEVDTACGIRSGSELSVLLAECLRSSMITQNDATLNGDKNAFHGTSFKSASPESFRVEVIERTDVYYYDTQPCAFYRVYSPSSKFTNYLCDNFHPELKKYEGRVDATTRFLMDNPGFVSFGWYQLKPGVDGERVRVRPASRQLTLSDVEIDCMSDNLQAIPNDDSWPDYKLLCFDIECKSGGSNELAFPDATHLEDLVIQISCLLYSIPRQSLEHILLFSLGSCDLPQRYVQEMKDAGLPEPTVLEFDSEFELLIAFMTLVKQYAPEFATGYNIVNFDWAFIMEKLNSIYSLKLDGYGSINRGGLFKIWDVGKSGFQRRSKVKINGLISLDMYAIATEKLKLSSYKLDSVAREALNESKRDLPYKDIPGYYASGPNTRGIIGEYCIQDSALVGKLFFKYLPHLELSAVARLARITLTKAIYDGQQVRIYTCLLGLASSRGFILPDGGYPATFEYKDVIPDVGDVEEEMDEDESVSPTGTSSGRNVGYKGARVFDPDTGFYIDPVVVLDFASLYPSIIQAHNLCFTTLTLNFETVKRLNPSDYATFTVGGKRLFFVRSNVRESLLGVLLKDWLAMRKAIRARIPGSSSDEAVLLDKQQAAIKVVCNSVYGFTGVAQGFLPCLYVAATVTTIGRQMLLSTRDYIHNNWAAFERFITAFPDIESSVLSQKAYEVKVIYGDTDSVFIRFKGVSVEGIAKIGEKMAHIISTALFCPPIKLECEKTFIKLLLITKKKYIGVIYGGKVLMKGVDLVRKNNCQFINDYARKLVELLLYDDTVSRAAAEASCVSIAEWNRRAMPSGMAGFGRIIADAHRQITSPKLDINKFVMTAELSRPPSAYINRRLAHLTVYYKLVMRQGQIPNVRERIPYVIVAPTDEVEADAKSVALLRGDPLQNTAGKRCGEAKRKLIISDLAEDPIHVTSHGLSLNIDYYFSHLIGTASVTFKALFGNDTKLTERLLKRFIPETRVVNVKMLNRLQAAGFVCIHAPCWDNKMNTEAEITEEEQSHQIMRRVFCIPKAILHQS

Legend:
[1] = molecular target: Human cytomegalovirus DNA polymerase (Human cytomegalovirus, UniProt P08546); assay: CMV polymerase assay (AlphaLISA, Example 15); assay type: biochemical; details: read-out: CMV IC50; HCMV polymerase 0.2 nM; 30 min pre-incubation; 60 min at 37° C.
Protocol: (§1) CMV and VZW Polymerase Assays
(§2) Human cytomegalovirus and varicella zoster virus DNA polymerases were expressed via baculovirus vector in SF21 cells and purified. Heterodimeric nucleic acid substrate used in the herpesvirus polymerase reactions were generated by annealing a 59-mer template to a 17-mer digoxigenin-labeled primer. Polymerase (HCMV final concentration of 0.2 nM; VZV final concentration of 0.4 nM) was combined with an inhibitor compound or DMSO in assay buffer (10 mM HEPES, pH 7.5, 25 mM KCl, 25 mM NaCl, 5 mM MgCl2, 5% glycerol, 0.67 mg/ml bovine serum albumin, and 1 mM tris(2-carboxyethyl)phosphine)), and this mixture was pre-incubated for 30 minutes at room temperature in 384-well microtiter plates. The polymerization reaction was initiated by the addition of template/primer substrate (final concentration: 1.6 nM) and dNTPs (final concentration: 24 nM dCTP, 24 nMdGTP, 16 nM dATP, 16 nM dTTP, and 0.8 nM biotin-dUTP). After a 60 minute incubation period at 37° C., the reactions were terminated using quench buffer (25 mM HEPES pH 7.5, 100 mM NaCl, 0.25% Tween-20, 12 mM EDTA, and 1 mg/ml bovine serum albumin). Incorporation of biotinylated UTP was detected with 2.5-5 μg/mL anti-DIG AlphaLISA acceptor beads and 5-10 μg/mL streptavidin AlphaLISA donor beads (PerkinElmer). Compound effects were normalized to the window defined by the controls (DMSO only and pre-quenched wells) and were fit using a 4-parameter algorithm to report an IC50.

HCMV Strain AD169 = assay: Viral qPCR assay, HCMV (Example 14); assay type: cell-based; details: read-out: CMV Cell EC50; Strain AD169 in MRC-5 cells, 0.05-0.1 pfu/cell, ~72 hours, viral genome copy number by qPCR; growth media or 50% fetal bovine serum
Protocol: MRCS and Vero cells were obtained from ATCC and were maintained at 37° C./5% CO2/90% relative humidity in Minimal Essential Medium with 10% fetal bovine serum, […], 100 units/mL penicillin and 100 ug/mL streptomycin. Assay plates were prepared by dispensing compounds dissolved in DMSO into wells of 384 well collagen-coated plates using an ECHO acoustic dispenser. Each test compound was tested in a 10-point, serial 3-fold dilution. Controls included uninfected cells and infected cells treated only with DMSO. Assays were initiated by mixing selected cells, in suspension, with virus, and dispensing 50 μl/well infected cells to pre-plated compounds. Plates were incubated at 37° C./5% CO2/90% relative humidity for ˜72 hours to permit genomic replication, and infected cells were lysed by the addition of an equal volume of lysis buffer (10 mM Tris-HCl, pH8, 50 mM KCl, 2 mM MgCl2, 0.45% NP-40, 0.45% Tween-20, and 100 μg/mL proteinase K). An aliquot of the lysate was then transferred to a 384-well PCR plate and incubated at 56° C. for 1 hour, and then at 95° C. for 10 minutes. Levels of a viral gene were measured in 10 ul qPCR assays using TaqMan® Gene Expression Master Mix (Applied Biosystems) and an 7900HT Fast Real-Time PCR System with 384-Well Block Module. 7-point, serial 10-fold dilutions of a plasmid standard were run on each plate to generate a standard curve, and genome copies numbers were calculated by plotting experimental Ct onto linear regression of the standard curve. Compound effects on viral genome copy number were normalized to the window defined by the controls. Calculated % effects were fit using a 4-parameter algorithm, and EC50 was reported. • HCMV: Strain AD169 was assayed in MRC-5 cells and was used at 0.05-0.1 pfu/cell. The assays were performed in either growth media or in the same media with 50% fetal bovine serum. Primer-probe set was Thermo Fisher Assay ID=AIFATFK. • HSV-1: Strain F was assayed in Vero or MRCS cells and was used at 0.0005-0.004 pfu/cell in growth medium. Primer-probe set was Thermo Fisher Assay ID=AIBJZIB. • HSV-2: Strain G was assayed in Vero or MRCS cells and was used at 0.004-0.4 pfu/cell in growth medium. Primer-probe set was Thermo Fisher Assay ID=AICSXOJ.

[2] = molecular target: varicella zoster virus DNA polymerase (Varicella-zoster virus, UniProt P09252); assay: VZV polymerase assay (AlphaLISA, Example 15); assay type: biochemical; details: read-out: VZV IC50; VZV polymerase 0.4 nM; 30 min pre-incubation; 60 min at 37° C.
Protocol: as §1, §2

HSV-1 Strain F = assay: Viral qPCR assay, HSV-1 (Example 14); assay type: cell-based; details: read-out: HSV1 Cell EC50; Strain F in Vero or MRCS cells, 0.0005-0.004 pfu/cell, ~72 hours, viral genome copy number by qPCR
Protocol: (§3) MRCS and Vero cells were obtained from ATCC and were maintained at 37° C./5% CO2/90% relative humidity in Minimal Essential Medium with 10% fetal bovine serum, […], 100 units/mL penicillin and 100 ug/mL streptomycin. Assay plates were prepared by dispensing compounds dissolved in DMSO into wells of 384 well collagen-coated plates using an ECHO acoustic dispenser. Each test compound was tested in a 10-point, serial 3-fold dilution. Controls included uninfected cells and infected cells treated only with DMSO. Assays were initiated by mixing selected cells, in suspension, with virus, and dispensing 50 μl/well infected cells to pre-plated compounds. […] Levels of a viral gene were measured in 10 ul qPCR assays using TaqMan® Gene Expression Master Mix (Applied Biosystems) and an 7900HT Fast Real-Time PCR System with 384-Well Block Module. 7-point, serial 10-fold dilutions of a plasmid standard were run on each plate to generate a standard curve, and genome copies numbers were calculated by plotting experimental Ct onto linear regression of the standard curve. […] Calculated % effects were fit using a 4-parameter algorithm, and EC50 was reported. • HCMV: Strain AD169 was assayed in MRC-5 cells and was used at 0.05-0.1 pfu/cell. […]

HSV-2 Strain G = assay: Viral qPCR assay, HSV-2 (Example 14); assay type: cell-based; details: read-out: HSV2 Cell EC50; Strain G in Vero or MRCS cells, 0.004-0.4 pfu/cell, ~72 hours, viral genome copy number by qPCR
Protocol: as §3

Row | SMILES | IC50 [1] [nM] | EC50 (HCMV Strain AD169) [nM] | IC50 [2] [nM] | EC50 (HSV-1 Strain F) [nM] | EC50 (HSV-2 Strain G) [nM]
1 | COc1nc(N2CCN(Cc3ccc(Cl)cc3)C2=O)ccc1C[C@H]1COC(=O)N1 | 35 | 409 |  |  | 
2 | COc1nc(NC(=O)Cc2ccc(C(F)(F)F)cc2)ccc1C[C@H]1COC(=O)N1 | 8 | 170 | 0.8 | 198 | 161
3 | COc1nc(NC(=O)Cc2ccc(Cl)cc2CN(C)C)ccc1C[C@H]1COC(=O)N1 | 2440 | > 9900 | 108 |  | 
4 | COc1nc(N2CCC(c3ccc(Cl)cc3)C2=O)ccc1C[C@H]1COC(=O)N1 (single isomer, unassigned) | 5.8 | 311 | 0.4 | 215 | 159
